Consider 28 molecules from patent publication EP4613730A1, “LIPIDIC ALKYNYLCARBINOLS WITH ANTI-BACTERIAL AND ANTI-TUBERCULOSIS ACTIVITY” (priority 2024, dated 2025).

Each structure is given as a SMILES string.

The subject of one data set is Vero cell line. As to the kind of experiment: Cytotoxicity evaluation on Vero cell line (MTT). It is filed as cell-based. Conditions: VERO CC50 / anti-Mtb MIC. How it is done:
(§1) The biological activity of the compounds of the present invention were evaluated. The activity against mycobacteria (Mtb) was assessed by minimum inhibitory concentration values (MIC, µM) determination. The selectivity index (SI) is defined as: SI = (CC50)/(MIC) [formula] wherein CC50 refers to the half maximal cytotoxic concentration of compounds towards particular eukaryotic cells, either for HCT116 cells and/or VERO cells; MIC refers to the minimum inhibitory concentration of the compounds towards mycobacteria.
Cytotoxicity evaluation of the tested molecules by MTT assay was performed on the Vero cell line. Briefly, cells (5.10^4 cells/mL) in 100 µL of complete medium [MEM supplemented with 10% fetal calf serum (FCS), 2 mM L-glutamine and antibiotics (100U/mL penicillin and 100 µg/mL streptomycin)] were seeded into each well of 96-well plates and incubated at 37 °C in a humidified 5% CO2 with 95% air atmosphere. After a 24 h incubation, 100 µL of medium with various product concentrations and appropriate controls were added and the plates were incubated for 72 h at 37 °C. Each plate-well was then microscope-examined for detecting possible precipitate formation before the medium was aspirated from the wells. 100 µL of MTT solution (0.5 mg/mL in complete MEM) were then added to each well. Cells were incubated for 1 h at 37 °C and the MTT solution was then removed, and DMSO (100 µL/well) was added to dissolve the resulting formazan crystals. Plates were shaken vigorously (300 rpm) for 5 min. The absorbance was measured at 570 nm with a microplate spectrophotometer (BIOTEK Eon). DMSO was used as blank and SDS as positive control. CC50 were calculated by non-linear regression analysis processed on dose-response curves, using TableCurve 2D V5 software.

The subject of data set [1] is Human HCT-116 colon cancer cells. As to the kind of experiment: Cytotoxicity evaluation on HCT-116 cell line (SRB). It is filed as cell-based. Particulars: HCT116 CC50 / anti-Mtb MIC. Here is the method: as §1
Human HCT-116 colon cancer cells were seeded in 96-well plates (2500 cells/well) 24 hours before being treated for 72 hours with the tested compounds. Cells were grown and treated in DMEM 10% FBS. For each compound, 11 concentrations, corresponding to twofold serial dilutions from the maximum concentration, were evaluated, with each concentration tested in duplicate. DMSO was set at 0.5% final concentration in each well, including in the untreated conditions. At the end of the treatment, cells were fixed 1 hour at 4°C by addition of cold 10 % trichloroacetic acid to a final 3.33 % concentration, then washed 4 times with water. The plates were dried and the cells stained for 30 minutes with 0.057 % (wt/vol) Sulforhodamine B (SRB) in 1% acetic acid, then washed 4 times with 1% acetic acid and dried. The dye was resuspended by a 1 h 30 incubation in 200 µL of 10 mM Tris-base and the absorbance at 490 nm measured with a plate reader (µquant, Bio-tek). For normalization, the background value was subtracted to each value, the duplicates averaged and the untreated condition set to 100% cell viability. CC50 were computed from at least three independent experiments using the GraphPad Prism software using a non-linear regression to a four-parameter logistic curve (log[inhibitor] vs response; variable slope).

Take `CCCCCCCCCCCC(O)C#CCO` (racemic) [Compound 1, Pentadec-2-yne-1,4-diol]: the figures for the “SI (CC50/MIC)” value (in the data set on Vero cell line; in data set [1]) were 71 (VERO) and 48 (HCT116), respectively.

Regarding `CCCCCCCCCCCCC#CCO` [Comparative example A, reference compound], the “SI (CC50/MIC)” value is on record as 37 (VERO) in the data set with Vero cell line and 24 (HCT116) in data set [1].

As to `C=CC(O)C#CC(O)CCCCCCCCCCC` (centres unmarked) [Compound 2, Heptadec-1-en-4-yne-3,6-diol], the “SI (CC50/MIC)” value in the data set with Vero cell line is 6 (VERO); in data set [1] it was 1.6 (HCT116).

Regarding `C=C=CC(O)C#CC(O)CCCCCCCCCCC` (centres unmarked) [Compound 3, Octadeca-1,2-dien-5-yne-4,7-diol], the results for the “SI (CC50/MIC)” value (in the data set on Vero cell line; in data set [1]) were 3.2 (VERO) and 3.6 (HCT116), respectively.

Turning to `C#CC(O)C#CC(O)CCCCCCCCCCC` (centres unmarked) [Compound 4, Heptadeca-1,4-diyne-3,6-diol], the “SI (CC50/MIC)” value in the data set on Vero cell line is 8 (VERO); in data set [1] it was 13 (HCT116).

Consider `CCCCCCCCCCCC(O)C#CC(O)c1ccccc1` (centres unmarked) [Compound 5, 1-Phenylpentadec-2-yne-1,4-diol], for which the “SI (CC50/MIC)” value with Vero cell line was 37 (VERO); in data set [1] it was 40 (HCT116).

With `CCCCCCCCCCCC(O)C#CC(O)CC` (centres unmarked) [Compound 6, Heptadec-4-yne-3,6-diol], the “SI (CC50/MIC)” value with Vero cell line is 17 (VERO).

Regarding `CCCCCCCCCCCC(O)C#CC(O)C1CC1` (centres unmarked) [Compound 7, 1-Cyclopropylpentadec-2-yne-1,4-diol], the “SI (CC50/MIC)” value with Vero cell line is listed as 146 (VERO).

Turning to `CCCCCCCCCCCC(O)C#CC(O)C(C)(C)C` (centres unmarked) [Compound 8, 2,2-Dimethylheptadec-4-yne-3,6-diol], the “SI (CC50/MIC)” value in data set [1] was 4 (HCT116).

Consider `CCCCCCCCCCCC(O)C#CC(O)C(CC)CC` (centres unmarked) [Compound 9, 3-Ethyloctadec-5-yne-4,7-diol], for which, in data set [1], the “SI (CC50/MIC)” value is reported as 4 (HCT116).

As to `CCCCCCCCCCCC(O)C#CC(O)C1CCCC1` (centres unmarked) [Compound 10, 1-Cyclopentylpentadec-2-yne-1,4-diol], the “SI (CC50/MIC)” value in data set [1] is listed as 4 (HCT116).

For the molecule `CCCCCCCCCCCC(O)C#CC(O)C1CCCCC1` (centres unmarked) [Compound 11, 1-Cyclohexylpentadec-2-yne-1,4-diol], the “SI (CC50/MIC)” value in data set [1] was 4 (HCT116).

`C=CC(O)C#CCC(O)CCCCCCCCCC` (centres unmarked) [Compound 12, Heptadec-1-en-4-yne-3,7-diol]: the “SI (CC50/MIC)” value with Vero cell line is 10 (VERO); in data set [1], 1.6 (HCT116).

`C=C=CC(O)C#CCC(O)CCCCCCCCCC` (centres unmarked) [Compound 13, Octadeca-1,2-dien-5-yne-4,8-diol]: in data set [1], the “SI (CC50/MIC)” value is 20 (HCT116).

With `C#CC(O)C#CCC(O)CCCCCCCCCC` (centres unmarked) [Compound 14, Heptadeca-1,4-diyne-3,7-diol], the entries for the “SI (CC50/MIC)” value (in the data set on Vero cell line; in data set [1]) were 290 (VERO) and 3 (HCT116), respectively.

In the case of `CCCCCCCCCCC(O)CC#CC(O)c1ccccc1` (centres unmarked) [Compound 15, 1-Phenylpentadec-2-yne-1,5-diol], the “SI (CC50/MIC)” value with Vero cell line is 30 (VERO); in data set [1], 16 (HCT116).

As to `CCCCCCCCCCC(O)CC#CC(O)CC` (centres unmarked) [Compound 16, Heptadec-4-yne-3,7-diol], the “SI (CC50/MIC)” value with Vero cell line is reported as 15 (VERO); in data set [1] it was 10 (HCT116).

For `CCCCCCCCCCC(O)CC#CC(O)C1CC1` (centres unmarked) [Compound 17, 1-Cyclopropylpentadec-2-yne-1,5-diol], the “SI (CC50/MIC)” value in the data set on Vero cell line is given as 74 (VERO); in data set [1] it was 67 (HCT116).

Take `C=CC(O)C#CCCCCCCCCCCCC` (centres unmarked) [Compound 18, Heptadec-1-en-4-yn-3-ol]: the “SI (CC50/MIC)” value in the data set with Vero cell line is 0.4 (VERO); in data set [1], < 0.1 (HCT116).

As to `C=C=CC(O)C#CCCCCCCCCCCCC` (centres unmarked) [Compound 19, Octadeca-1,2-dien-5-yn-4-ol], the “SI (CC50/MIC)” value in data set [1] is given as 1.1 (HCT116).

Take `C#CC(O)C#CCCCCCCCCCCCC` (centres unmarked) [Compound 20, Heptadeca-1,4-diyn-3-ol]: the “SI (CC50/MIC)” value in the data set on Vero cell line is on record as 0.7 (VERO); in data set [1], < 0.1 (HCT116).

As for `CCCCCCCCCCCCC#CC(O)c1ccccc1` (centres unmarked) [Compound 21, 1-Phenylpentadec-2-yn-1-ol], the “SI (CC50/MIC)” value in the data set with Vero cell line is recorded as 42 (VERO); in data set [1], 41 (HCT116).

Take `CCCCCCCCCCCCC#CC(O)CC` (centres unmarked) [Compound 22, Heptadec-4-yn-3-ol]: the “SI (CC50/MIC)” value is > 20 (VERO) in the data set on Vero cell line and 5 (HCT116) in data set [1].

Consider `CCCCCCCCCCCCC#CC(O)C1CC1` (centres unmarked) [Compound 23, 1-Cyclopropylpentadec-2-yn-1-ol], for which the “SI (CC50/MIC)” value with Vero cell line is listed as < 16 (VERO); in data set [1] it was < 6 (HCT116).

In the case of `CCCCCCCCCCCCC#CC(O)C(C)(C)C` (centres unmarked) [Compound 24, 2,2-Dimethylheptadec-4-yn-3-ol], the “SI (CC50/MIC)” value in data set [1] is listed as < 6 (HCT116).

In the case of `CCCCCCCCCCCCC#CC(O)C(CC)CC` (centres unmarked) [Compound 25, 3-Ethyloctadec-5-yn-4-ol], in data set [1], the “SI (CC50/MIC)” value was < 12 (HCT116).

Regarding `CCCCCCCCCCCCC#CC(O)C1CCCC1` (centres unmarked) [Compound 26, 1-Cyclopentylpentadec-2-yn-1-ol], in data set [1], the “SI (CC50/MIC)” value is on record as < 10 (HCT116).

For `CCCCCCCCCCCCC#CC(O)C1CCCCC1` (centres unmarked) [Compound 27, 1-Cyclohexylpentadec-2-yn-1-ol], the “SI (CC50/MIC)” value in data set [1] was 6 (HCT116).
